In the assay the target is Neuraminidase (Influenza A virus (A/Puerto Rico/8/1934(H1N1)), UniProt P03468). As to the kind of experiment: In vitro inhibitory activity against H1N9 Influenza A Neuraminidase.

Each structure is given as a SMILES string.

`N=C(N)Nc1cc(C(=O)O)ccc1N1CCCC1=O` displayed an IC50 of 250 µM.

The term IC50 denotes the point on the concentration scale where inhibition reaches its midpoint.

The record behind these values is ChEMBL document CHEMBL1132253, “Potent inhibition of influenza sialidase by a benzoic acid containing a 2-pyrrolidinone substituent” (J Med Chem, 1999).
